Measurements published in PMC9735679, “Identification and Evolution of a Natural Tetr Protein Based on Molecular Docking and Development of a Fluorescence Polari-Zation Assay for Multi-Detection of 10 Tetracyclines in Milk” (Foods, 2022).

Experiment: Recovery from standard fortified blank milk samples by FPA
Details: n = 6

| Structure (SMILES) | Inter-Assay Recovery (added 10 ng/g) | Intra-Assay Recovery (added 10 ng/g) | Inter-Assay Recovery (added 100 ng/g) | Intra-Assay Recovery (added 100 ng/g) |
| --- | --- | --- | --- | --- |
| CN(C)[C@@H]1C(O)=C(C(N)=O)C(=O)[C@@]2(O)C(O)=C3C(=O)c4c(O)cccc4[C@@](C)(O)[C@H]3[C@H](O)[C@@H]12 [OTC, oxytetracycline] | 75.7% | 91.3% | 79.8% | 86.5% |
| CN(C)[C@@H]1C(O)=C(C(N)=O)C(=O)[C@@]2(O)C(O)=C3C(=O)c4c(O)ccc(Cl)c4[C@@H](O)[C@H]3C[C@@H]12 [DMC, demeclocycline] | 79.4% | 77.4% | 84.4% | 86.8% |
| CN(C)c1cc(NC(=O)CNC(C)(C)C)c(O)c2c1C[C@H]1C[C@H]3[C@H](N(C)C)C(O)=C(C(N)=O)C(=O)[C@@]3(O)C(O)=C1C2=O [TIC, tigecycline] | 76.8% | 85.3% | 84.3% | 84.2% |
| CN(C)c1ccc(O)c2c1C[C@H]1C[C@H]3[C@H](N(C)C)C(O)=C(C(N)=O)C(=O)[C@@]3(O)C(O)=C1C2=O [MC, minocycline] | 73.5% | 85.2% | 86.2% | 93.3% |
| C[C@H]1c2cccc(O)c2C(=O)C2=C(O)[C@]3(O)C(=O)C(C(N)=O)=C(O)[C@@H](N(C)C)[C@@H]3[C@@H](O)[C@@H]21 [DC, doxycycline] | 71.5% | 90.7% | 92.4% | 95.1% |
| CN(C)[C@@H]1C(O)=C(C(N)=O)C(=O)[C@@]2(O)C(O)=C3C(=O)c4c(O)ccc(Cl)c4[C@@](C)(O)[C@H]3C[C@@H]12 [CTC, chlortetracycline] | 81.2% | 78.6% | 87.4% | 81.2% |
| C=C1c2cccc(O)c2C(=O)C2=C(O)[C@]3(O)C(=O)C(C(N)=O)=C(O)[C@@H](N(C)C)[C@@H]3[C@@H](O)[C@H]12 [MTC, Methacycline] | 83.1% | 79.2% | 91.2% | 78.5% |
| CN(C)[C@@H]1C(O)=C(C(N)=O)C(=O)[C@@]2(O)C(O)=C3C(=O)c4c(O)cccc4C[C@H]3C[C@@H]12 [SC, Sancycline] | 78.2% | 83.4% | 91.2% | 90.5% |
